Data as given in patent publication US6342492B1, “Anti-viral triaza compounds and compositions” (The Research Foundation of State University of New York, priority 1995, dated 2002).

Assays:
Varicella Zoster Virus = test: Plaque reduction assay for VZV (Ellen strain); type: cell-based; settings: CC50/EC50
Method: (§1) Additional antiviral testing was carried out to test the efficacy of compounds of the invention against human cytomegalovirus (HCMV) and another herpesvirus, Variecella Zoster Virus(VZV). The compounds tested were compound (1), the HCl salt of compound (1), Compounds 211, 43, 213 and 214.

Human Cytomegalovirus = test: Semi-automated CPE-inhibition assay for HCMV in human foreskin fibroblast cells; type: cell-based; settings: CC50/EC50
Method: as §1

Question: Which “Varicella Zoster Virus SI” value (Varicella Zoster Virus) does the source give for `C=C1CN(S(=O)(=O)c2ccc(C)cc2)CCCN(Cc2ccccc2)CCCN(S(=O)(=O)c2ccc(C)cc2)C1.Cl` [1 · HCl] here?
Answer: The value was >47.1.

Question: And the “Human Cytomegalovirus SI” value (Human Cytomegalovirus)?
Answer: The value was 0.

Question: For `C=C1CN(S(=O)(=O)c2ccc(C)cc2)CCCN(Cc2ccccc2)CCCN(S(=O)(=O)c2ccc(C)cc2)C1` [Compound 1, 9-Benzyl-3-methylene-1,5-ditosyl-1,5,9-triazacyclododecane], which “Varicella Zoster Virus SI” value (Varicella Zoster Virus) is on record?
Answer: Its value is 16.8.

Question: And the “Human Cytomegalovirus SI” value (Human Cytomegalovirus)?
Answer: The value was <3.9.

Question: Which results are given for `C=C1CN(S(=O)(=O)c2ccc(C)cc2)CCC[N+]([O-])(Cc2ccccc2)CCCN(S(=O)(=O)c2ccc(C)cc2)C1` [Compound 43, 9-Benzyl-3-methylene-1,5-ditosyl-1,5,9-triazacyclododecane-9-oxide]?
Answer: Varicella Zoster Virus SI (Varicella Zoster Virus): >7.0; Human Cytomegalovirus SI (Human Cytomegalovirus): 0

Question: How did the “Varicella Zoster Virus SI” value (Varicella Zoster Virus) turn out when `C=C1CN(S(=O)(=O)c2ccccc2)CCCN(Cc2ccccc2)CCCN(S(=O)(=O)c2ccccc2)C1` [Compound 211, 9-Benzyl-3-methylene-1,5-dibenzenesulfonyl-1,5,9-triazacyclododecane] was run?
Answer: The value was >1.8.

Question: And the “Human Cytomegalovirus SI” value (Human Cytomegalovirus)?
Answer: The value was 0.

Question: For `C=C1CN(S(=O)(=O)c2ccc(C)cc2)CCCN(C(=O)OCC)CCCN(S(=O)(=O)c2ccc(C)cc2)C1` [Compound 213, 9-(Ethyloxycarbonyl)-3-methylene-1,5-ditosyl-1,5,9-triazacyclododecane], which “Varicella Zoster Virus SI” value (Varicella Zoster Virus) is on record?
Answer: Its value is >1.0.

Question: What about the “Human Cytomegalovirus SI” value (Human Cytomegalovirus) of the same compound?
Answer: The value was 55.6.

Question: With “N-Benzyl-N-[3-(N-2-methyl-2-propenyl-toluenesulfonamido)propyl]-N-(3-toluenesulfonamidopropyl)amine dihydrogen sulfate [Compound 214]” as the compound, how does the “Varicella Zoster Virus SI” value (Varicella Zoster Virus) read?
Answer: The value was 2.7.

Question: And the “Human Cytomegalovirus SI” value (Human Cytomegalovirus)?
Answer: The value was >68.
